Data reported in the supplement of paper PMC12137928.

System: HCT116
Conditions: 72 h
Method in brief: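 Luminescence was read with CellTiter-Glo in HCT116 cells seeded at 250 per well in 1536-well plates. Signals were scaled between vehicle at 0% and positive control at -100%, then pattern-corrected. IC50 and maximal efficacy were obtained by fitting a four-parameter Hill equation.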

CCOP(=O)(OCC)SCC[N+](C)(C)C [Echothiophate Iodide] was tested, and the IC50 cell viability (ICRF193 0 nM) was > 45.8 µM and the IC50 cell viability (ICRF193 200 nM) was > 45.8 µM.
